Laboratory results published in ChEMBL document CHEMBL4680109, “A road map for prioritizing warheads for cysteine targeting covalent inhibitors” (Eur J Med Chem, 2018).

Assays:
[1] = target: Cathepsin B (Homo sapiens) (UniProt P07858); test: (§1) Inhibition of recombinant cathepsin B (unknown origin) endopeptidase activity expressed in Escherichia coli assessed as residual activity at 100 uM using Z-RR-AMC as substrate preincubated for 30 mins under shaking in presence of 5 mM cysteine followed by substrate addition relative to control
Escherichia coli [2] = test: Inhibition of Escherichia coli MurA assessed as residual activity at 100 uM using UNAG and PEP as substrate preincubated for 30 mins in presence of UNAG followed by PEP addition and measured after 15 mins by malachite green colorimetric assay relative to control; settings: time 45.0 min
Staphylococcus aureus = test: Inhibition of Staphylococcus aureus MurA expressed in Escherichia coli assessed as residual activity at 100 uM using UNAG and PEP as substrate preincubated for 30 mins in presence of UNAG followed by PEP addition and measured after 15 mins by malachite green colorimetric assay relative to control; settings: time 45.0 min
Escherichia coli [3] = test: Inhibition of Escherichia coli MurA assessed as residual activity at 100 uM using UNAG and PEP as substrate preincubated for 30 mins in presence of UNAG followed by PEP addition and measured after 15 mins in presence of 5 mM cysteine by malachite green colorimetric assay relative to control; settings: time 45.0 min
Outline: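 MurA from E. coli, with the enzyme diluted in Hepes pH 7.8 containing cysteine (15 mM in buffer, giving 5 mM in incubation). Preincubated with UNAG and compound for 30 min at 37 °C, then PEP added and reacted 15 min at 37 °C. Phosphate read by malachite green at 650 nm. Duplicates; residual activity is versus DMSO control.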

[4] = target: Cathepsin B (Homo sapiens) (UniProt P07858); test: as §1, with “exopeptidase” for “endopeptidase”, “Abz-GIVRAK(Dnp)-OH” for “Z-RR-AMC”

Question: O=C(CBr)c1ccc([N+](=O)[O-])cc1 was tested. Which Activity [1] did it give?
Answer: 58%

Question: And the Activity (Escherichia coli [2])?
Answer: 1.5%

Question: And the Activity (Staphylococcus aureus)?
Answer: 1%

Question: What about the Activity (Escherichia coli [3]) of the same compound?
Answer: 100%

Question: And the Activity [4]?
Answer: 27%
